Pooled drug test results. Numbers come from NIAID ChemDB, via PubChem.

All rows: cytotoxicity tests; cell line: MT-4; read-out: CC50

An empty or dashed field is not shown.

structure	read by	result
CC(C)=CCc1c(O)cc2oc(-c3ccc(O)c(O)c3)c(O)c(=O)c2c1O		22 µg/mL
CC(C)Nc1cccnc1N1CCN(C(=O)c2ccc(-c3ccc(NS(C)(=O)=O)cc3)[nH]2)CC1		29 µM
Cc1cc(C)c(Nc2ccnc(Nc3ccc(C#N)cc3)n2)c(C)c1		2.512 µM
O=C(/C=C/c1ccc(O)c2c1[C@H](C(=O)O)[C@@H](c1ccc(O)c(O)c1)O2)O[C@H](Cc1ccc(O)c(O)c1)C(=O)O	MTT	32.52 µg/mL
CC(C)Nc1cccnc1N1CCN(C(=O)c2cc3cc(NS(C)(=O)=O)ccc3[nH]2)CC1		>100 µM
CC(C)=CCc1c(O)cc(O)c2c1O[C@H](c1ccccc1)CC2=O		>100 µg/mL
CSCC[C@H](NC(=O)COc1ccc2ccccc2c1)C(=O)NN	MTT	>100 µg/mL
C1CNCCNCCCN(CCCN2CCCNCCNCCCNCC2)CCNC1		>622 µM
O=C1C=CC(=C(c2ccc(O)cc2)c2ccc(O)cc2)C=C1		2.6 µM
C1CNCCNCCCN[C@H]([C@@H]2CNCCCNCCNCCCN2)CNC1		362 µM
Cc1cn([C@H]2C=C[C@@H](COC(=O)CNC(=O)CCC(=O)N3CCN(CCNC(=S)Nc4ccc(Br)cn4)CC3)O2)c(=O)[nH]c1=O	MTT	>100 µM
CC(C)=CCC(Cc1c(O)cc(O)c2c1O[C@H](c1cc3c(cc1O)O[C@@H](c1ccc(O)cc1)[C@@H]3c1cc(O)cc(O)c1)CC2=O)C(=O)O		114 µg/mL
O=c1[nH]c(=O)n([C@H]2C[C@H](F)[C@@H](CO)O2)cc1Cl		490 µM
CCOC(=O)c1c[nH]cc1S(=O)(=O)c1ccccc1	MTT	>200 µM
N#C[C@]1(CO)O[C@@H](n2ccc(N)nc2=O)C[C@@H]1O	MTT	0.17 µM
O=C(NC(=S)Nc1ccc(Br)cn1)c1ccccc1[N+](=O)[O-]	MTT	>100 µM
COc1ccc([C@@H]2CC(=O)c3c(O)cc(O)cc3O2)cc1O		>200 µg/mL
Cc1cn([C@@H]2O[C@H](COC(=O)c3ccccc3)[C@@H](O)[C@H]2OC(=O)c2ccccc2)c(=O)n(CC(=O)O)c1=O		105 µM
Nc1ccn([C@H]2CC[C@@H](CO)O2)c(=O)n1		219–753 µM
N#Cc1cc(Cl)cc(Oc2cc(OCc3[nH]nc4cccnc34)ccc2Cl)c1		>8.3 µM
CCc1nc([N+](=O)[O-])c(N2CCN(C(=O)CNCCCCCCn3c(=O)c(C)cn([C@H]4C[C@H](N=[N+]=[N-])[C@@H](CO)O4)c3=O)CC2)n1Cc1ccccc1		54.2 µg/mL
CC(=O)Oc1ccc(/C=C/C(=O)O[C@@H](C(=O)O)[C@@H](OC(=O)/C=C/c2ccc(OC(C)=O)c(OC(C)=O)c2)C(=O)O)cc1OC(C)=O		47.1 µM
CCN1c2cc(C)c(C)cc2N(C)S(=O)(=O)c2cccnc21		>250 µM
Cn1cc2c(c1)S(=O)(=O)c1cc(Cl)ccc1NC2=S	MTT	>200 µM
NNC(=O)[C@H](CO)NC(=O)COc1ccc2ccccc2c1	MTT	>100 µg/mL
CC(C)(C)[Si](C)(C)OC[C@H]1O[C@@H](n2ccc(=O)n(CC(=O)O)c2=O)[C@H](O)[C@@H]1O[Si](C)(C)C(C)(C)C		20 µM
C[C@H](CCC(=O)O)[C@H]1CC[C@H]2[C@@H]3C[C@H](OS(=O)(=O)O)[C@@H]4C[C@H](OS(=O)(=O)O)CC[C@]4(C)[C@H]3CC[C@]12C		>500 µg/mL
O=C1C[C@@H](c2ccc(O)cc2)Oc2cc(O)cc(O)c21		>200 µg/mL
Cc1cc(/C=C/C#N)cc(C)c1Oc1ccnc(Nc2ccc(C#N)cc2)n1		>25 µM
C[C@H](CCC(=O)O)[C@H]1CC[C@H]2[C@@H]3[C@H](O)C[C@@H]4C[C@H](OS(=O)(=O)O)CC[C@]4(C)[C@H]3C[C@H](O)[C@]12C		>500 µg/mL
C1CNCCNCCCNCCNC1		1248 µM
Oc1cc(O)c2c(c1)O[C@H](c1ccc(O)c(O)c1)[C@H](O)C2		72.5 µg/mL
O=c1[nH]cnc2c1ncn2[C@H]1CC[C@@H](CO)O1	MTT	>1000 µM
COC(=O)[C@H](CO)NC(=O)COc1ccc2ccccc2c1	MTT	>100 µg/mL
CCOCn1c(Cc2ccccc2)c(C(C)C)c(=O)[nH]c1=O		>100 µM
C[C@H](Cn1cnc2c(=O)[nH]c(N)nc21)OCP(=O)(O)O		>200 µM
CCc1cn([C@@H]2O[C@H](CO[Si](C)(C)C(C)(C)C)[C@@H](O)[C@H]2O[Si](C)(C)C(C)(C)C)c(=O)n(CC(=O)O)c1=O		4.7 µM
O=C1Nc2ccc(Cl)cc2S(=O)(=O)c2cn(Cc3ccc(-c4ccccc4)cc3)cc21	MTT	4.6 µM
Cc1cn([C@@H]2O[C@H](CO[Si](C)(C)C(C)(C)C)[C@@H](O)[C@H]2O[Si](C)(C)C(C)(C)C)c(=O)n(CC(=O)ON)c1=O		4.1 µM
Nc1nc2c(ncn2[C@H]2CC[C@@H](CO)O2)c(=O)[nH]1		1.4 µM
C[C@H](CCC(=O)NCCS(=O)(=O)O)[C@H]1CC[C@H]2[C@@H]3CC[C@@H]4C[C@H](OS(=O)(=O)O)CC[C@]4(C)C3CC[C@]12C		>500 µg/mL
CC1(C)C=Cc2c(cc(O)c3c(=O)c4c(oc23)-c2ccc(O)cc2OC(C(C)(C)OO)C4)O1		11 µg/mL
Nc1nc2c(ncn2CCOCP(=O)(O)O)c(=O)[nH]1		1.6 µM
C=C(/C=C/P(=O)(O)O)CCn1cnc2c(=O)[nH]c(N)nc21	MTT	>1000 µM
CC(C)Nc1cccnc1N1CCN(C(=O)c2c[nH]c(-c3ccc(N)cc3)c2)CC1		>200 µM
Cc1ccccc1Cn1cc2c(c1)S(=O)(=O)c1cc(Cl)ccc1NC2=O	MTT	>200 µM
C[C@H](CCC(=O)O)[C@H]1CC[C@H]2[C@@H]3CC[C@@H]4C[C@H](OS(=O)(=O)O)CC[C@]4(C)[C@H]3CC[C@]12C		276 µg/mL
CC(=O)Oc1ccc(/C=C/C(=O)O[C@H](C(=O)O)[C@H](OC(=O)/C=C/c2ccc(OC(C)=O)c(OC(C)=O)c2)C(=O)O)cc1OC(C)=O		60 µM
CC1=C[C@H]2[C@@]3(O)[C@H](C)[C@@H](OC(=O)Cc4ccccc4)[C@]4(OC(=O)Cc5ccccc5)[C@H]([C@@H]3C=C(COC(=O)Cc3ccccc3)C[C@]2(O)C1=O)C4(C)C		>31.3 µg/mL
C[C@H](CCC(=O)O)[C@H]1CC[C@H]2[C@@H]3CC[C@@H]4C[C@H](OS(=O)(=O)O)CC[C@]4(C)[C@H]3C[C@H](OS(=O)(=O)O)[C@]12C		>311 µg/mL
CCCCCCCCC(=O)O[C@@]12[C@H](OC(C)=O)[C@@H](C)[C@@]3(O)[C@@H](C=C(CO)C[C@]4(O)C(=O)C(C)=C[C@@H]34)[C@@H]1C2(C)C		>31.3 µg/mL
COC(=O)CNC(=O)COc1ccc2ccccc2c1	MTT	>100 µg/mL
CC(C)Nc1cccnc1N1CCN(C(=O)c2ccc(-c3cccc(N)c3)[nH]2)CC1		42 µM
Nc1nc2c(ncn2CCOCP(=O)(O)OP(=O)(O)OP(=O)(O)O)c(=O)[nH]1		>200 µM
COC(=O)c1cc(O)c(O)c(O)c1		9.5 µg/mL
Nc1ncnc2c1ncn2[C@H]1CC[C@@H](CO)O1		>200 µM
CCCCCCCCCCCCCC(=O)OCC1=C[C@H]2[C@@H]3C(C)(C)[C@]3(OC(=O)CCCCCCCCCCCCC)[C@H](OC(C)=O)[C@@H](C)[C@]2(O)[C@@H]2C=C(C)C(=O)[C@@]2(O)C1		>125 µg/mL
Cc1cn([C@H]2C[C@H](N=[N+]=[N-])[C@@H](CO)O2)c(=O)[nH]c1=O		3.2 µM
Cc1ccnc2c1NC(=O)c1cccnc1N2C1CC1		>200 µM
CCCC(C)(C)[Si](C)(C)OC[C@H]1O[C@@H](n2cc(C)c(=O)n(CC(=O)O)c2=O)[C@H](O[Si](C)(C)C(C)(C)CCC)[C@@H]1O		18 µM
Cc1[nH]c2ccccc2c1CC(=O)N[C@@H](Cc1ccccc1)C(=O)N(C)c1ccccc1	MTT	>100 µg/mL
CC(C)=CCc1c(O)cc2c(c1O)C(=O)C[C@@H](c1ccc(O)cc1)O2		125 µg/mL
O=C(O[C@@H]1[C@@H](OC(=O)c2cc(O)c(O)c(O)c2)[C@H](O)[C@@H](CO)O[C@H]1O)c1cc(O)c(O)c(O)c1		33.8 µg/mL
CCOC(=O)[C@@H](Cc1ccc(O)c(O)c1)OC(=O)/C=C/c1ccc(O)c(O)c1/C=C/c1ccc(O)c(O)c1	MTT	7.38 µg/mL
Cc1cccc(N2C(=O)CS[C@@H]2c2c(Br)cccc2Br)n1		13.06 µM
O=C(CCC(=O)N1CCN(CCNC(=S)Nc2ccc(Br)cn2)CC1)NCC(=O)OC[C@@H]1CC[C@H](n2ccc(=O)[nH]c2=O)O1	MTT	>100 µM
COc1cc(O)ccc1C(=O)CC(=O)c1ccc(O)cc1		12 µg/mL
CC(C)(C)[Si](C)(C)OC[C@H]1O[C@@H](n2cnc3c(=O)n(CC(=O)O)cnc32)[C@H](O[Si](C)(C)C(C)(C)C)[C@@H]1O		106 µM
Cc1cn([C@H]2C[C@H](N=[N+]=[N-])[C@@H](CO)O2)c(=O)[nH]c1=O		2.2 µg/mL
C[C@H](CC(=O)O)[C@H]1CC[C@H]2[C@@H]3CC[C@@H]4C[C@H](OS(=O)(=O)O)CC[C@]4(C)[C@H]3C[C@H](OS(=O)(=O)O)[C@]12C		>500 µg/mL
O=C(OC1OC2COC(=O)c3cc(O)c(O)c(O)c3-c3c(cc(O)c(O)c3O)C(=O)OC2C(OC(=O)c2cc(O)c(O)c(O)c2)C1OC(=O)c1cc(O)c(O)c(O)c1)c1cc(O)c(O)c(Oc2c(C(=O)O)cc(O)c(O)c2O)c1		32.6 µg/mL
CC(C)Nc1cccnc1N1CCN(C(=O)c2c[nH]c(-c3ccccc3)c2)CC1		78 µM
S=C(NCCN1CCNCC1)Nc1ccc(Br)cn1	MTT	>100 µM
O=C1O[C@H]2[C@@H]3OC(=O)c4cc(O)c(O)c(O)c4-c4c(cc(O)c(O)c4O)C(=O)OC[C@H]2O[C@@H](OC(=O)c2cc(O)c(O)c(O)c2)[C@@H]3OC(=O)c2cc(O)c(O)c3c2[C@@H]2C1=CC(=O)[C@](O)(O3)C2(O)O		23.6 µg/mL
C=CCOCn1c(Cc2ccccc2)c(C(C)C)c(=O)[nH]c1=O		>100 µM
CC(C)=CCc1c(O)cc(O)c2c1O[C@H](c1ccc(O)cc1)CC2=O		95 µg/mL
CC(=O)OCC1=C[C@H]2[C@@H]3C(C)(C)[C@]3(OC(C)=O)[C@H](O)[C@@H](C)[C@]2(O)[C@@H]2C=C(C)C(=O)[C@]2(O)C1		>1000 µg/mL
O=C(/C=C/c1ccc(O)c(O)c1/C=C/c1ccc(O)c(O)c1)O[C@H](Cc1ccc(O)c(O)c1)C(=O)O	MTT	7.61 µg/mL

Repeating the final 9 entries:

structure | read by | result
C[C@H](CC(=O)O)[C@H]1CC[C@H]2[C@@H]3CC[C@@H]4C[C@H](OS(=O)(=O)O)CC[C@]4(C)[C@H]3C[C@H](OS(=O)(=O)O)[C@]12C |  | >500 µg/mL
O=C(OC1OC2COC(=O)c3cc(O)c(O)c(O)c3-c3c(cc(O)c(O)c3O)C(=O)OC2C(OC(=O)c2cc(O)c(O)c(O)c2)C1OC(=O)c1cc(O)c(O)c(O)c1)c1cc(O)c(O)c(Oc2c(C(=O)O)cc(O)c(O)c2O)c1 |  | 32.6 µg/mL
CC(C)Nc1cccnc1N1CCN(C(=O)c2c[nH]c(-c3ccccc3)c2)CC1 |  | 78 µM
S=C(NCCN1CCNCC1)Nc1ccc(Br)cn1 | MTT | >100 µM
O=C1O[C@H]2[C@@H]3OC(=O)c4cc(O)c(O)c(O)c4-c4c(cc(O)c(O)c4O)C(=O)OC[C@H]2O[C@@H](OC(=O)c2cc(O)c(O)c(O)c2)[C@@H]3OC(=O)c2cc(O)c(O)c3c2[C@@H]2C1=CC(=O)[C@](O)(O3)C2(O)O |  | 23.6 µg/mL
C=CCOCn1c(Cc2ccccc2)c(C(C)C)c(=O)[nH]c1=O |  | >100 µM
CC(C)=CCc1c(O)cc(O)c2c1O[C@H](c1ccc(O)cc1)CC2=O |  | 95 µg/mL
CC(=O)OCC1=C[C@H]2[C@@H]3C(C)(C)[C@]3(OC(C)=O)[C@H](O)[C@@H](C)[C@]2(O)[C@@H]2C=C(C)C(=O)[C@]2(O)C1 |  | >1000 µg/mL
O=C(/C=C/c1ccc(O)c(O)c1/C=C/c1ccc(O)c(O)c1)O[C@H](Cc1ccc(O)c(O)c1)C(=O)O | MTT | 7.61 µg/mL

Two numbers with a dash give a range or band. CCn: concentration that lowers growth or viability of the cells by n%. Rows are shuffled and stem from different studies.